US9663478B2, “Benzotriazine oxides as drugs targeting Mycobacterium tuberculosis” (priority 2011, dated 2017)

System: Vero cells
Test: Cytotoxicity against Vero cells (Cell Titer-Glo)
Settings: for SI (CC50/MIC): Tables 1-4 and text; for SI: ratio of the CC50/TB-MIC, Tables P1-P3

| SMILES | SI (CC50/MIC) | SI |
| --- | --- | --- |
| COc1ccc2c(c1)[n+]([O-])nc(NC1CCC1)[n+]2[O-] [Compound 15dd, 3-(cyclobutylamino)-7-methoxybenzo[e][1,2,4]triazine 1,4-dioxide] | 16 | – |
| NNC(=O)c1ccncc1 [INH, Isoniazid, reference compound] | >830 | – |
| [O-][n+]1nc(N[C@H]2[C@@H]3C[C@H]4C[C@@H](C3)C[C@@H]2C4)[n+]([O-])c2ccccc21 [Compound 8n, 3-((1R,3S,5r,7r)-adamantan-2-ylamino)benzo[e][1,2,4]triazine 1,4-dioxide] | 2.9 | – |
| CCNc1n[n+]([O-])c2cc(OC)ccc2[n+]1[O-] [Compound 15da, 3-(ethylamino)-7-methoxybenzo[e][1,2,4]triazine 1,4-dioxide] | 6.3 | – |
| [O-][n+]1nc(NC2CC2)[n+]([O-])c2ccc(F)cc21 [SRI-012274] | – | 11.4 |
| Cc1cccc2c1[n+]([O-])c(NC1CCCC1)n[n+]2[O-] [SRI-012473] | – | 11.9 |
| COc1cc2c(cc1C)[n+]([O-])nc(N[C@@H]1C[C@H]3CC[C@@H]1C3)[n+]2[O-] [Compound 15gm, 3-((1R,2R,4S)-bicyclo[2.2.1]heptan-2-ylamino)-6-methoxy-7-methylbenzo[e][1,2,4]triazine 1,4-dioxide] | >10 | – |
| CCC(COC)Nc1n[n+]([O-])c2ccccc2[n+]1[O-] (centres unmarked) [SRI-012272] | – | 5.0 |
| [O-][n+]1nc(N[C@@H]2C[C@H]3CC[C@@H]2C3)[n+]([O-])c2ccccc21 [Compound 8m, 3-((1R,2R,4S)-bicyclo[2.2.1]heptan-2-ylamino)benzo[e][1,2,4]triazine 1,4-dioxide] | 5.5 | – |
| CC(Nc1n[n+]([O-])c2ccccc2[n+]1[O-])C(C)(C)C (centres unmarked) [SRI-012268] | – | 4.0 |
| CC(Nc1n[n+]([O-])c2cc(F)ccc2[n+]1[O-])C(C)(C)C (centres unmarked) [SRI-012283] | – | <4 |
| COc1cc2c(cc1C)[n+]([O-])nc(N[C@@H]1C[C@H]3CC[C@@H]1C3)[n+]2[O-] [SRI-012470] | – | 10.0 |
| [O-][n+]1nc(NC2CCCC2)[n+]([O-])c2ccc(F)cc21 [SRI-012277] | – | 7.3 |
| [O-][n+]1nc(NC2CC2)[n+]([O-])c2ccccc21 [Compound 8b, 3-(cyclopropylamino)benzo[e][1,2,4]triazine 1,4-dioxide] | 8.3 | – |
| CC(C)CC(C)Nc1n[n+]([O-])c2cc(F)ccc2[n+]1[O-] (centres unmarked) [SRI-012281] | – | <4 |
| CC(C)CCC(C)Nc1n[n+]([O-])c2ccccc2[n+]1[O-] (centres unmarked) [SRI-012259] | – | 3.3 |
| [O-][n+]1nc(NC2CCCCC2)[n+]([O-])c2ccc(F)cc21 [Compound 15af, 3-(cyclohexylamino)-7-fluorobenzo[e][1,2,4]triazine 1,4-dioxide] | <4.0 | – |
| CCC(COC)Nc1n[n+]([O-])c2cc(Cl)ccc2[n+]1[O-] (centres unmarked) [SRI-012304] | – | 2.1 |
| Cc1cccc2c1[n+]([O-])c(NC1CCC1)n[n+]2[O-] [SRI-012460] | – | 69.9 |
| COc1cc2c(cc1C)[n+]([O-])nc(NC1CCC1)[n+]2[O-] [Compound 15gd, 3-(cyclobutylamino)-6-methoxy-7-methylbenzo[e][1,2,4]triazine 1,4-dioxide] | >20 | – |
| CCNc1n[n+]([O-])c2cc(F)ccc2[n+]1[O-] [SRI-012284] | – | 7.3 |
| [O-][n+]1nc(N[C@@H]2C[C@H]3CC[C@@H]2C3)[n+]([O-])c2ccc(Cl)cc21 [Compound 15bm, 3-((1R,2R,4S)-bicyclo[2.2.1]heptan-2-ylamino)-7-chlorobenzo[e][1,2,4]triazine 1,4-dioxide] | 7.3 | – |
| CC(C)CCC(C)Nc1n[n+]([O-])c2ccccc2[n+]1[O-] (centres unmarked) [Compound 8l, 3-((5-methylhexan-2-yl)amino)benzo[e][1,2,4]triazine 1,4-dioxide] | 3.3 | – |
| [O-][n+]1nc(N[C@@H]2C[C@H]3CC[C@@H]2C3)[n+]([O-])c2cc3c(cc21)CCC3 (racemic) [SRI-012404] | – | 40 |
| [O-][n+]1nc(N2CCCC2)[n+]([O-])c2cc3c(cc21)CCC3 [Compound 20q, 3-(pyrrolidin-1-yl)-7,8-dihydro-6H-indeno[5,6-e][1,2,4]triazine 1,4-dioxide] | 80 | – |

| SMILES | SI (CC50/MIC) | SI |
| --- | --- | --- |
| [O-][n+]1nc(NC2CC2)[n+]([O-])c2ccccc21 [SRI-012255] | – | 8.3 |
| CCNc1n[n+]([O-])c2cc(Cl)ccc2[n+]1[O-] [SRI-012306] | – | 2.1 |
| [O-][n+]1nc(N[C@@H]2C[C@H]3CC[C@@H]2C3)[n+]([O-])c2ccc(F)cc21 (racemic) [SRI-012280] | – | <4 |
| [O-][n+]1nc(N[C@@H]2C[C@H]3CC[C@@H]2C3)[n+]([O-])c2cc3c(cc21)CCC3 [Compound 15fm, 3-((1R,2R,4S)-bicyclo[2.2.1]heptan-2-ylamino)-7,8-dihydro-6H-indeno[5,6-e][1,2,4]triazine 1,4-dioxide] | >41 | – |
| [O-][n+]1nc(NC2CCC2)[n+]([O-])c2ccc(Cl)cc21 [SRI-012302] | – | 10.3 |
| C[C@@H](Nc1n[n+]([O-])c2ccccc2[n+]1[O-])C1CCCCC1 [Compound 8k, (R)-3-((1-cyclohexylethyl)amino)benzo[e][1,2,4]triazine 1,4-dioxide] | 7.1 | – |
| [O-][n+]1nc(NC2CCC2)[n+]([O-])c2ccccc21 [Compound 8d, 3-(cyclobutylamino)benzo[e][1,2,4]triazine 1,4-dioxide] | 7.1 | – |
| [O-][n+]1nc(NC2CCC2)[n+]([O-])c2ccc(Br)cc21 [Compound 15cd, 7-bromo-3-(cyclobutylamino)benzo[e][1,2,4]triazine 1,4-dioxide] | 24 | – |
| CCNc1n[n+]([O-])c2ccccc2[n+]1[O-] [Compound 8a, 3-(ethylamino)benzo[e][1,2,4]triazine 1,4-dioxide] | 17 | – |
| [O-][n+]1nc(NC2CCCC2)[n+]([O-])c2ccccc21 [SRI-012265] | – | 4.2 |
| [O-][n+]1nc(N[C@@H]2C[C@H]3CC[C@@H]2C3)[n+]([O-])c2ccc(Br)cc21 [SRI-012467] | – | 2.6 |
| CCNc1n[n+]([O-])c2cc(Br)ccc2[n+]1[O-] [Compound 15ca, 7-bromo-3-(ethylamino)benzo[e][1,2,4]triazine 1,4-dioxide] | 6.7 | – |
| [O-][n+]1nc(NC2CC2)[n+]([O-])c2ccc(Cl)cc21 [Compound 15bb, 7-chloro-3-(cyclopropylamino)benzo[e][1,2,4]triazine 1,4-dioxide] | 2.2 | – |
| CCNc1n[n+]([O-])c2cc(F)ccc2[n+]1[O-] [Compound 15aa, 3-(ethylamino)-7-fluorobenzo[e][1,2,4]triazine 1,4-dioxide] | 7.3 | – |
| [O-][n+]1nc(NC2CCC2)[n+]([O-])c2ccc(Cl)cc21 [Compound 15bd, 7-chloro-3-(cyclobutylamino)benzo[e][1,2,4]triazine 1,4-dioxide] | 10 | – |
| CCNc1n[n+]([O-])c2cc(Cl)ccc2[n+]1[O-] [Compound 15ba, 7-chloro-3-(ethylamino)benzo[e][1,2,4]triazine 1,4-dioxide] | 2.1 | – |
| CC(C)(C)C1CCC(Nc2n[n+]([O-])c3ccccc3[n+]2[O-])CC1 (centres unmarked) [SRI-012257] | – | 3.7 |
| CCNc1n[n+]([O-])c2cc(OC)ccc2[n+]1[O-] [SRI-012285] | – | 6.3 |
| [O-][n+]1nc(N[C@@H]2C[C@H]3CC[C@@H]2C3)[n+]([O-])c2ccc(F)cc21 [Compound 15am, 3-((1R,2R,4S)-bicyclo[2.2.1]heptan-2-ylamino)-7-fluorobenzo[e][1,2,4]triazine 1,4-dioxide] | <4.0 | – |
| [O-][n+]1nc(NC2CCCCC2)[n+]([O-])c2ccc(Cl)cc21 [Compound 15bf, 7-chloro-3-(cyclohexylamino)benzo[e][1,2,4]triazine 1,4-dioxide] | 4.2 | – |
| CCCC(C)Nc1n[n+]([O-])c2ccccc2[n+]1[O-] (centres unmarked) [SRI-012258] | – | 5.3 |
| CCC(CC)Nc1n[n+]([O-])c2cc(F)ccc2[n+]1[O-] [SRI-012279] | – | 3.5 |
| CCCC(C)Nc1n[n+]([O-])c2ccccc2[n+]1[O-] (centres unmarked) [Compound 8h, 3-(pentan-2-ylamino)benzo[e][1,2,4]triazine 1,4-dioxide] | 5.3 | – |
| [O-][n+]1nc(NC2CCC2)[n+]([O-])c2ccc(F)cc21 [Compound 15ad, 3-(cyclobutylamino)-7-fluorobenzo[e][1,2,4]triazine 1,4-dioxide] | 10 | – |
| Cc1cccc2c1[n+]([O-])c(N[C@@H]1C[C@H]3CC[C@@H]1C3)n[n+]2[O-] (racemic) [SRI-012461] | – | 14.7 |
